PubChem BioAssay AID624099 | ICCB-Longwood | 2012
The whole screen tested about 21,000 reagents; this is a random part of them. Of all reagents, 497 (2.4%) were called active. 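Higher z means weaker E2 silencing; only reporter increases were scored, and knock-downs that hurt cell survival may mask genuine repressor factors.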 Entries without a mark were called inactive.

Assay: 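Knock-downs relieving repression by E2 of an HPV18 LCR luciferase reporter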 (primary screen)
Cell system: human C33A cervical carcinoma cells (HPV-negative) stably expressing BPV1 E2 and an HPV18 LCR luciferase reporter
Reagents: siRNA pool against human genes, 40 nM
Timing: 72 h
Measured: 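HPV18 LCR reporter light per well, converted to plate-wise z-scores that exclude control wells, and averaged over triplicate plates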
Scale: mean z-score and z-score: higher = stronger reporter signal, weaker E2 silencing
Call rule: 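Mean z ≥ 2 together with z ≥ 2 in two or more of the three replicates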

SP3 (GeneID 6670) → mean z-score = 2.82 (active); z-score, replicate A = 2.73; z-score, replicate B = 3.13; z-score, replicate C = 2.61
LINC01107 (GeneID 151171) → mean z-score = 0.12; z-score, replicate A = 0.33; z-score, replicate B = -0.27; z-score, replicate C = 0.28
RNF150 (GeneID 57484) → mean z-score = 0.18; z-score, replicate A = 0.1; z-score, replicate B = 0.45; z-score, replicate C = -0.02
SLITRK1 (GeneID 114798) → mean z-score = 0.91; z-score, replicate A = 1.07; z-score, replicate B = 0.79; z-score, replicate C = 0.87
GABRA4 (GeneID 2557) → mean z-score = -0.19; z-score, replicate A = -0.09; z-score, replicate B = -0.25; z-score, replicate C = -0.23
UGDH (GeneID 7358) → mean z-score = 0.34; z-score, replicate A = 0.41; z-score, replicate B = 0.53; z-score, replicate C = 0.08
YPEL1 (GeneID 29799) → mean z-score = 0.1; z-score, replicate A = -0.01; z-score, replicate B = 0.22; z-score, replicate C = 0.1
SIGMAR1 (GeneID 10280) → mean z-score = -0.16; z-score, replicate A = -0.25; z-score, replicate B = 0.04; z-score, replicate C = -0.25
DHX29 (GeneID 54505) → mean z-score = -1.08; z-score, replicate A = -1.17; z-score, replicate B = -1.06; z-score, replicate C = -1
ZNF329 (GeneID 79673) → mean z-score = 0.31; z-score, replicate A = 0.96; z-score, replicate B = 0.28; z-score, replicate C = -0.3
NDFIP1 (GeneID 80762) → mean z-score = 0.33; z-score, replicate A = 0.2; z-score, replicate B = 0.48; z-score, replicate C = 0.32
CARD6 (GeneID 84674) → mean z-score = -0.47; z-score, replicate A = -0.44; z-score, replicate B = -0.45; z-score, replicate C = -0.52
ASF1A (GeneID 25842) → mean z-score = -0.77; z-score, replicate A = -0.83; z-score, replicate B = -0.62; z-score, replicate C = -0.87
GALP (GeneID 85569) → mean z-score = 0.32; z-score, replicate A = 0.61; z-score, replicate B = 0.22; z-score, replicate C = 0.13
ZBTB46 (GeneID 140685) → mean z-score = 0.99; z-score, replicate A = 0.96; z-score, replicate B = 0.83; z-score, replicate C = 1.19
RADIL (GeneID 55698) → mean z-score = 0.21; z-score, replicate A = 0.14; z-score, replicate B = 0.51; z-score, replicate C = -0.01
MYBL1 (GeneID 4603) → mean z-score = -0.99; z-score, replicate A = -0.91; z-score, replicate B = -1.23; z-score, replicate C = -0.83
MRPL54 (GeneID 116541) → mean z-score = 1.09; z-score, replicate A = 1.13; z-score, replicate B = 0.88; z-score, replicate C = 1.25
BPIFB4 (GeneID 149954) → mean z-score = -0.61; z-score, replicate A = -0.54; z-score, replicate B = -0.12; z-score, replicate C = -1.16
ARB2A (GeneID 83989) → mean z-score = 0.07; z-score, replicate A = -0.2; z-score, replicate B = 0.16; z-score, replicate C = 0.25
SRSF2P1 (GeneID 392439) → mean z-score = -0.9; z-score, replicate A = -0.68; z-score, replicate B = -0.97; z-score, replicate C = -1.03

Single entries from above:
Under “mean z-score”, SRSF2P1 (GeneID 392439) reads -0.9
SP3 (GeneID 6670), z-score, replicate B = 3.13 (active)
ZNF329 (GeneID 79673), z-score, replicate C: -0.3
